A mixed list of measured activities; the numbers were collected in NIAID ChemDB.

All rows: host cell toxicity; cell line: HFF; read-out: CC50

Rows are shuffled and stem from different studies. An empty or dashed field is not shown. CCn is the concentration with n% toxicity to the cells.

SMILES	method	value
CCC[CH2][Sn]([Cl])([Cl])[Cl]		39 µg/mL
Nc1nc(N)c2ncn(/C=C3/C[C@H]3CO)c2n1	neutral red	141 µM
NC(=O)c1c(N)n(COC(CO)CO)c2ncnc(N)c12	visual reading	>100 µM
N#Cc1c(N)n(Cc2ccc(Br)cc2)c2ncnc(N)c12	visual reading	>10 µM
CCCCCCCc1c(C)[nH]c2cc(OC)ccc2c1=O	absorbance	>50 µM
Nc1ncnc2c1c(Br)cn2[C@@H]1O[C@H](CO)[C@@H](O)[C@H]1O	visual reading	1.2 µM
COc1nc(N)nc2c1ncn2/C=C1/C[C@@H]1CO	neutral red	16 µM
Nc1nc(NC2CC2)c2ncn(C=C3CC3CO)c2n1	visual reading	222 µM
[Cl][Sn]([Cl])([Cl])[c]1ccccc1		1.1 µg/mL
Nc1ncnc2c1c(Br)cn2COC(CO)CO	visual reading	100 µM
COc1nc(N)nc2c1ncn2/C=C1/C[C@H]1CO	neutral red	158 µM
C[CH](C)[Sn]([Cl])([Cl])[CH](C)C		8 µg/mL
Nc1nc(Cl)c2ncn(/C=C3/C[C@@H]3CO)c2n1	neutral red	28 µM
C[CH2][Sn]([Br])([Br])[CH2]C.c1cnc2c(c1)ccc1cccnc12		31 µg/mL
NC(=S)c1c(N)n([C@@H]2O[C@H](CO)[C@@H](O)[C@H]2O)c2ncnc(N)c12	visual reading	0.6 µM
Cn1cnc2nc(NCCO)nc(NCc3ccccc3)c21	visual reading	>100 µM
CCCCCCC[CH2][Sn]([Cl])([Cl])[CH2]CCCCCCC		33 µg/mL
NC(=S)c1c(N)n(COC(CO)CO)c2ncnc(N)c12	visual reading	>100 µM
Nc1nc(Cl)c2ncn(/C=C3/C[C@H]3CO)c2n1	neutral red	93 µM
CCCCCC[CH2][Sn]([Cl])([Cl])[CH2]CCCCCC		29 µg/mL
N#Cc1c(Br)n(COC(CO)CO)c2ncnc(N)c12	visual reading	100 µM
COC(=O)C(C)NP(=O)(OC[C@@H]1C/C1=C/n1cnc2c(N)nc(N)nc21)Oc1ccccc1	neutral red	152 µM
CCCCCCC[CH2][Sn]([Cl])([Cl])[Cl]		245 µg/mL
N#Cc1c(Br)n([C@@H]2O[C@H](CO)[C@@H](O)[C@H]2O)c2ncnc(N)c12	visual reading	2.5 µM
Nc1nc(NC2CC2)c2ncn(/C=C3/C[C@H]3CO)c2n1	neutral red	190 µM

The last 3 rows once more:

SMILES	method	value
CCCCCCC[CH2][Sn]([Cl])([Cl])[Cl]		245 µg/mL
N#Cc1c(Br)n([C@@H]2O[C@H](CO)[C@@H](O)[C@H]2O)c2ncnc(N)c12	visual reading	2.5 µM
Nc1nc(NC2CC2)c2ncn(/C=C3/C[C@H]3CO)c2n1	neutral red	190 µM